From PMC7108845, “An Alphaherpesvirus Exploits Antimicrobial β-Defensins To Initiate Respiratory Tract Infection” (Journal of Virology, 2020)

The sequences below were run on EHV1.
Type: cell-based, equine herpesvirus type 1

**Q.** How did the “subsequent EHV1 infection in EREC” value turn out when “MRAPYFLLLTLCLFCCQMSSGVGYLTGLGHRSDHYICARSGGTCHFSSCPLFTKIEGTCYGGKAKCCL (also: bicyclic or more (positions not given here)) [eBD1, chemically synthesized equine β-defensin, named according to its human homolog]” was run?
**A.** enhanced

**Q.** What about the “susceptibility of EREC to EHV1 infection (number of plaques)” value (“susceptibility of EREC to EHV1 infection” below) of the same sequence?
**A.** more susceptible to EHV1 infection

**Q.** For “MRIHFLLFALLFLFLMPVPGNGGIINMLQKSYCKIRKGRCALLGCLPKEEQIGSCSVSGRKCCRKKK (also: bicyclic or more (positions not given here)) [eBD3, chemically synthesized equine β-defensin, named according to its human homolog]”, which “subsequent EHV1 infection in EREC” value is on record?
**A.** enhanced

**Q.** And the “susceptibility of EREC to EHV1 infection” value?
**A.** more susceptible to EHV1 infection

**Q.** With “MRILHFLLAFLIVFLLPVPGFTAGIETSFSCSQNGGFCISPKCLPGSKQIGTCILPGSKCCRKK (also: bicyclic or more (positions not given here)) [eBD2, chemically synthesized equine β-defensin, named according to its human homolog]” as the sequence, how does the “subsequent EHV1 infection in EREC” value read?
**A.** enhanced

**Q.** And the “susceptibility of EREC to EHV1 infection” value?
**A.** more susceptible to EHV1 infection
